Measured values from several laboratories, pooled; numbers as filed in NIAID ChemDB.

Shared fields: whole-cell or culture tests; organism: HIV-1

Lines come from different laboratories, so protocols vary. ECn is the concentration giving n% inhibition of infection, replication or growth. Two numbers with a dash give a range or band.

{"SMILES": "Cc1cc(S(N)(=O)=O)ccc1NC(=O)COc1ccc(Cl)cc1C(=O)c1cc(F)cc(F)c1", "cells": "HeLa + HELA CD4+", "read by": "β-galactosidase", "endpoint": "EC50", "changes": "RT-G190E", "strain": "HXB2", "result": "<0.01 µM"}
{"SMILES": "Cc1cc(/C=C/C#N)cc(C)c1Oc1nc(NC2CCN(Cc3ccccc3F)CC2)nc2ccsc12", "cells": "MT-4", "read by": "MTT", "endpoint": "EC50", "changes": "NNRTI-resistant (RT Y188L)", "strain": "IIIB", "result": "0.139 µM"}
{"SMILES": "O=C1Nc2ccc(F)c(F)c2[C@@](/C=C/C2CC2)(C(F)(F)F)N1", "endpoint": "EC90", "changes": "RT-K103N", "result": "0.021 µM"}
{"SMILES": "CC(C)=CCOc1cc(NC(=S)c2ccoc2C)ccc1Cl", "cells": "CEM + CEM-SS", "read by": "cytopathic effect / XTT", "endpoint": "EC50", "changes": "RT-L100I", "strain": "NL4-3 (RT L100I)", "result": "0.4 µM"}
{"SMILES": "CC(C)[C@H](NC(=O)OCc1ccccn1)C(=O)N[C@@H](Cc1ccccc1)[C@@H](O)C[C@H](Cc1ccccc1)NC(=O)OCc1cccnc1", "cells": "MT-4", "read by": "p24", "endpoint": "EC50", "changes": "PR-M46I L63P V82T", "strain": "NL4-3", "result": "<3 µM"}
{"SMILES": "CC(C)C1=C2[C@H]3CC[C@@H]4[C@@]5(C)CC[C@H](OC(=O)[C@H]6C[C@@H](C(=O)O)C6(C)C)C(C)(C)[C@@H]5CC[C@@]4(C)[C@]3(C)CC[C@@]2(CCNC(=O)c2ccc(Cl)c(Cl)c2)CC1=O", "cells": "MT-2", "read by": "p24 / ELISA", "endpoint": "EC50", "strain": "92HT599", "result": "<1 µM"}
{"SMILES": "O=C(O)CCCNC(=O)Nc1ccc(F)c2c(C(=O)C(=O)N3CCN(C(=O)c4ccccc4)CC3)c[nH]c12", "cells": "HeLa", "read by": "luciferase / reporter gene", "endpoint": "EC50", "result": "<1 µM"}
{"SMILES": "[2H]C(CCN)(CNC(=O)c1ccc(Cl)cc1)NC(=O)C[C@@]12CC[C@]3(C)[C@H](CC[C@@H]4[C@@]5(C)CC[C@H](OC(=O)[C@H]6C[C@@H](C(=O)O)C6(C)C)C(C)(C)[C@@H]5CC[C@]43C)C1=C(C(C)C)C(=O)C2", "cells": "MT-2", "read by": "p24 / ELISA", "endpoint": "EC50", "strain": "92HT599", "result": "<1 µM"}
{"SMILES": "Cc1cc(C#N)cc(C(=O)c2cc(Cl)ccc2OCC(=O)Nc2ccc(OCCCN3CC=CC3)cc2C)c1", "cells": "HeLa + HELA CD4+", "read by": "β-galactosidase", "endpoint": "EC50", "changes": "RT-V106I Y181C", "strain": "HXB2", "result": "0.011–0.1 µM"}
{"SMILES": "N#Cc1cc(Cl)cc(Oc2c(Br)ccc(CC(=O)Nc3ccc(S(N)(=O)=O)cc3Cl)c2F)c1", "cells": "MT-4", "endpoint": "EC50", "changes": "V106A", "result": "0.0016 µM"}
{"SMILES": "CC1(C)CC=C(c2cn(-c3nccc(C(=O)NC4CCC(N5CC6CCC(C5)O6)CC4)n3)c3ccc(F)c([C@H](OC(C)(C)C)C(=O)O)c23)CC1", "cells": "H9", "read by": "luminescence", "endpoint": "EC50", "strain": "IIIB", "result": "0.0023 µM"}
{"SMILES": "COC(=O)c1ccc(CN2CCC(Nc3nc(Oc4c(C)cc(C#N)cc4C)c4ccsc4n3)CC2)cc1", "cells": "MT-4", "read by": "MTT", "endpoint": "EC50", "changes": "NNRTI-resistant (RT F227L V106A)", "strain": "IIIB", "result": "0.263 µM"}
{"SMILES": "CC(C)C1=C2[C@H]3CC[C@@H]4[C@@]5(C)CC[C@H](OC(=O)[C@@H]6C[C@H](C(=O)O)C6(C)C)C(C)(C)[C@@H]5CC[C@@]4(C)[C@]3(C)CC[C@@]2(CCNC(=O)c2ccc(Cl)cc2)CC1=O", "cells": "MT-2", "read by": "p24 / ELISA", "endpoint": "EC50", "strain": "92HT599", "result": "<1 µM"}
{"SMILES": "Cc1cc(S(N)(=O)=O)ccc1NC(=O)COc1ccc(Cl)cc1C(=O)c1cc(Cl)cc(C#N)c1", "cells": "HeLa + HELA CD4+", "read by": "β-galactosidase", "endpoint": "EC50", "changes": "RT-K103N P225H", "strain": "HXB2", "result": "<0.01 µM"}
{"SMILES": "C[C@@H]1CN(C(=O)c2ccccc2)CCN1C(=O)C(=O)c1c[nH]c2c(NC(=O)C3OC3C(=O)O)cccc12", "cells": "HeLa", "read by": "luciferase / reporter gene", "endpoint": "EC50", "result": "<1 µM"}
{"SMILES": "CC(C)=CCOc1cc(NC(=S)c2ccoc2C)ccc1Cl", "cells": "CEM + CEM-SS", "read by": "p24", "endpoint": "EC50", "changes": "RT-Y181C", "strain": "NL4-3", "result": "0.08 µM"}
{"SMILES": "Cc1cc(/C=C/C#N)cc(C)c1Oc1nc(NC2CCN(Cc3ccc([N+](=O)[O-])cc3)CC2)nc2ccsc12", "cells": "MT-4", "read by": "MTT", "endpoint": "EC50", "changes": "NNRTI-resistant (RT F227L V106A)", "strain": "IIIB", "result": "0.106 µM"}
{"SMILES": "Cc1cc(C(=O)NC(C)(C)CNC[C@H](O)[C@@]23CC[C@]4(C)[C@H](CC[C@@H]5[C@@]6(C)CC[C@H](OC(=O)[C@H]7C[C@@H](C(=O)O)C7(C)C)C(C)(C)[C@@H]6CC[C@]54C)C2=C(C(C)C)C(=O)C3)n[nH]1", "cells": "MT-2", "read by": "p24 / ELISA", "endpoint": "EC50", "strain": "92HT599", "result": "<1 µM"}
{"SMILES": "Cc1cc(C#N)cc(C(=O)c2cc(Cl)ccc2OCC(=O)Nc2cnc(S(N)(=O)=O)cc2C)c1", "cells": "MT-4", "read by": "cytopathic effect / propidium iodide", "endpoint": "EC50", "strain": "IIIB", "result": "<0.01 µM"}
{"SMILES": "Cc1nc2ccccc2c(-c2cc(F)c3c(c2C)CCCO3)c1[C@H](OC(C)(C)C)C(=O)O", "cells": "MT-4", "read by": "luminescence", "endpoint": "EC50", "strain": "NL4-3", "result": "0.015 µM"}
{"SMILES": "Cc1cc2cn[nH]c2cc1NC(=O)COc1ccc(Cl)cc1C(=O)c1cccc(C#N)c1", "cells": "HeLa + HELA CD4+", "read by": "β-galactosidase", "endpoint": "EC50", "changes": "RT-P225H", "strain": "HXB2", "result": "<0.01 µM"}
{"SMILES": "CC(C)C1=C2[C@H]3CC[C@@H]4[C@@]5(C)CC[C@H](OC(=O)[C@H]6C[C@@H](C(=O)O)C6(C)C)C(C)(C)[C@@H]5CC[C@@]4(C)[C@]3(C)CC[C@@]2(CCNCc2ccc(Cl)cc2OC2CCNCC2)CC1=O", "cells": "MT-2", "read by": "p24 / ELISA", "endpoint": "EC50", "strain": "92HT599", "result": "<1 µM"}
{"SMILES": "CCCc1cc(=O)oc2c3c(c4c(c12)OC(C)(C)CC4)O[C@@H](C)[C@H](C)[C@@H]3O", "cells": "PBMC", "read by": "RT activity", "endpoint": "EC50", "strain": "CLADE C", "result": "0.06 µM"}
{"SMILES": "Cc1cc(/C=C/C#N)cc(C)c1Oc1nc(NC2CCN(Cc3cccc(F)c3)CC2)nc2ccsc12", "cells": "MT-4", "read by": "MTT", "endpoint": "EC50", "changes": "NNRTI-resistant (RT Y188L)", "strain": "IIIB", "result": "0.159 µM"}
{"SMILES": "Cc1cc(OCCCS(N)(=O)=O)ccc1NC(=O)COc1ccc(Cl)cc1C(=O)c1cc(F)cc(C(F)(F)F)c1", "cells": "HeLa + HELA CD4+", "read by": "β-galactosidase", "endpoint": "EC50", "changes": "RT-L100I", "strain": "HXB2", "result": "<0.01 µM"}
{"SMILES": "O=C1Nc2ccc(Cl)cc2[C@@](/C=C/C2CC2)(C(F)(F)F)N1", "endpoint": "EC90", "changes": "RT-V108I", "result": "<0.012 µM"}
{"SMILES": "C[C@@H]1CN(C(=O)c2ccccc2)CCN1C(=O)C(=O)c1c[nH]c2c(NC(=O)CCC(=O)O)cccc12", "cells": "HeLa", "read by": "luciferase / reporter gene", "endpoint": "EC50", "result": "<1 µM"}
{"SMILES": "Cc1cc(N2CCS(=O)CC2)ccc1NC(=O)COc1ccc(Cl)cc1C(=O)c1nccs1", "cells": "MT-4", "read by": "cytopathic effect / propidium iodide", "endpoint": "EC50", "changes": "RT-Y181C", "strain": "Nevirapine-resistant (RT Y181C)", "result": "0.101–1 µM"}
{"SMILES": "CC(C)=CCN1Cc2cccc3[nH]c(=O)n(c23)CC1C", "cells": "CEM + CEM-SS", "read by": "cytopathic effect / XTT", "endpoint": "EC50", "changes": "RT-Y181C K101E", "strain": "UC10-resistant (RT Y181C K101E)", "result": ">35 µM"}
{"SMILES": "Cc1cc(S(N)(=O)=O)ccc1NC(=O)COc1ccc(Cl)cc1C(=O)c1cc(F)cc(C(F)(F)F)c1", "cells": "HeLa + HELA CD4+", "read by": "β-galactosidase", "endpoint": "EC50", "changes": "RT-E138K", "strain": "HXB2", "result": "<0.01 µM"}
{"SMILES": "Cc1cc(C#N)cc(C)c1Oc1nc(NC2CCC(NCc3ccc(S(C)(=O)=O)cc3)CC2)nc2ccsc12", "cells": "MT-4", "read by": "MTT", "endpoint": "EC50", "changes": "NNRTI-resistant (RT K103N)", "strain": "IIIB", "result": "0.355 µM"}
{"SMILES": "CCOC(=O)CCNC(=O)Nc1cccc2c(C(=O)C(=O)N3CC/C(=C(\\C#N)c4ccccc4)C[C@H]3C)c[nH]c12", "cells": "HeLa", "read by": "luciferase / reporter gene", "endpoint": "EC50", "result": "<1 µM"}
{"SMILES": "CC(C)=CCOc1cc(NC(=S)c2ccsc2C)ccc1Cl", "cells": "CEM + CEM-SS", "read by": "cytopathic effect / XTT", "endpoint": "EC50", "changes": "RT-Y188H", "strain": "Costatolide-resistant (RT Y188H)", "result": "0.07 µM"}
{"SMILES": "Cc1cc2[nH]cnc2cc1NC(=O)COc1ccc(Cl)cc1C(=O)c1cc(F)cc(C(F)(F)F)c1", "cells": "MT-4", "read by": "cytopathic effect / propidium iodide", "endpoint": "EC50", "changes": "RT-Y181C", "strain": "Nevirapine-resistant (RT Y181C)", "result": "<0.01 µM"}
{"SMILES": "CC(C)C1=C2[C@H]3CC[C@@H]4[C@@]5(C)CC[C@H](OC(=O)[C@H]6C[C@@H](C(=O)O)C6(C)C)C(C)(C)[C@@H]5CC[C@@]4(C)[C@]3(C)CC[C@@]2(CCNC(=O)c2ccc(CN3CCS(=O)(=O)CC3)cc2)CC1=O", "cells": "MT-2", "read by": "p24 / ELISA", "endpoint": "EC50", "strain": "92HT599", "result": "<1 µM"}
{"SMILES": "Cc1ccccc1CN1CCC(Nc2nc(Oc3c(C)cc(/C=C/C#N)cc3C)c3sccc3n2)CC1", "cells": "MT-4", "read by": "MTT", "endpoint": "EC50", "changes": "NNRTI-resistant (RT E138K)", "strain": "IIIB", "result": "0.128 µM"}